The nature of this data set: collision cross section in nitrogen (drift tube, single-field); higher = larger gas-phase ion size. As to conditions: ion source: ESI, ion mode: Positive.
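Note: chemical standards at 10 µM analysed by drift tube IMS-QTOF MS in about 3.95 torr nitrogen, mean of duplicate injections differing ≤1%, mass error below 10 ppm.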

Consider `CCCCOP(=O)(OCCCC)OCCCC` [Tributyl phosphate], for which the “collision cross section in nitrogen” value was 156.9 Å² (ion type: [M+H]) and 184.6 Å² (ion type: [M+Na]).

Values taken from the supplement of paper PMC12317010.
